# Potato spindle tuber viroid, stem 3: variant abundance in plants

Data from the supplement of Wu et al. 2024, doi:10.1371/journal.ppat.1012142.

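Three N. benthamiana plants were inoculated with the whole mutant pool. Samples came from the inoculated region at 5 days, the leaf margin at 10 and upper systemic leaves at 12.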

The pool varies stem 3 of the PSTVd intermediate strain in the pattern GUGGUUCCGNANNCNN; wild type is GUGGUUCCGGAACCGC (upper and lower strand joined, each 5' to 3', the first 8 letters being the upper strand).

Numbers give reads per thousand; 0 = not seen among the reads, higher = more abundant. Each site shows the three plants. "Pool" is the share in the plasmid pool used as inoculum, on the same scale. The inoculated region was read from the minus strand, the other sites from the plus strand. Samples held 27,691 to 54,225 reads, so the smallest values rest on one or two reads. The authors trace changes outside the varied positions to PCR and sequencing errors or to mutation in the plant; presence does not show that a variant is infectious alone. For reference, wild type rose from 17.3 per thousand in the pool to 330, 345, 235 (inoculated region), 794, 766, 816 (leaf margin) and 830, 792, 869 (systemic leaves).

sequence	pool	inoculated region	leaf margin	systemic leaves
GUGGUUCCGGAGGCGC	1.00	0.400 0.561 0.405	0 0 0.0722	0.112 0.0184 0
GUGGUUCCGGAGGCGG	1.45	0.506 0.625 0.351	0 0.0636 0	0.335 0 0
GUGGUUCCGGAGGCGU	0.939	0.826 0.604 0.703	0 0 0	0 0 0
GUGGUUCCGGAGGCUA	0.616	0.453 0.496 0.297	0.0567 0 0	0 0 0
GUGGUUCCGGAGGCUC	0.677	0.320 0.259 0.297	0 0.0318 0	0 0 0
GUGGUUCCGGAGGCUG	1.11	0.453 0.302 0.351	0 0.0318 0.0361	0 0 0
GUGGUUCCGGAGGCUU	1.03	0.800 0.647 0.973	0 0.891 0.397	0 0 0
GUGGUUCCGGAGUCAA	0.646	0.773 0.712 0.703	0 0.923 0.217	0 0 0
GUGGUUCCGGAGUCAC	0.769	0.880 0.604 0.892	0.0283 1.02 0.289	0 0 0
GUGGUUCCGGAGUCAG	0.877	0.693 0.647 0.730	0.0283 1.02 0.361	0 0 0
GUGGUUCCGGAGUCAU	0.785	0.880 0.604 0.838	2.07 1.27 0.542	1.21 1.14 0.608
GUGGUUCCGGAGUCCA	1.71	1.33 1.40 1.27	0 0.0318 0.181	0.0373 0 0
GUGGUUCCGGAGUCCC	0.877	0.800 0.647 1.00	0 0 0.0361	0 0 0
GUGGUUCCGGAGUCCG	0.862	0.560 0.733 1.03	0 0 0	0 0 0
GUGGUUCCGGAGUCCU	2.22	1.47 1.29 1.43	1.84 1.27 0.325	1.08 1.53 0.535
GUGGUUCCGGAGUCGA	0.662	0.773 0.647 0.622	0.0283 0 0.397	0 0 0
GUGGUUCCGGAGUCGC	0.862	0.826 0.539 0.730	0.0567 0.0318 0	0 0 0
GUGGUUCCGGAGUCGG	0.662	0.986 0.668 0.838	0 0 0.542	0 0 0
GUGGUUCCGGAGUCGU	0.800	0.826 0.819 0.540	0 0 0	0 0 0
GUGGUUCCGGAGUCUA	0.893	1.04 0.755 1.13	0 0 0	0 0 0
GUGGUUCCGGAGUCUC	0.769	0.853 0.712 0.892	0 0.0318 0.542	0 0 0
GUGGUUCCGGAGUCUG	0.723	0.800 0.841 0.703	0 0.0318 0.794	0 0 0
GUGGUUCCGGAGUCUU	0.816	0.853 0.582 0.946	0 0 0	0 0 0
GUGGUUCCGGAUACAA	0.693	0.293 0.410 0.378	0 0 0	0 0 0
GUGGUUCCGGAUACAC	0.769	0.560 0.323 0.243	0 0 0.0361	0 0 0
GUGGUUCCGGAUACAG	0.800	0.267 0.280 0.216	0 0 0	0 0 0
GUGGUUCCGGAUACAU	0.708	0.640 0.367 0.730	0 0 0.289	0 0 0
GUGGUUCCGGAUACCA	0.693	0.533 0.259 0.108	0 0 0	0 0 0
GUGGUUCCGGAUACCC	0.662	0.293 0.539 0.351	0 0 0	0 0 0
GUGGUUCCGGAUACCG	0.739	0.320 0.410 0.270	0 0 0	0 0 0
GUGGUUCCGGAUACCU	0.662	0.267 0.280 0.486	0 0 0	0 0 0
GUGGUUCCGGAUACGA	1.18	0.480 0.582 0.540	0.0283 0.0318 0	0.0932 0 0
GUGGUUCCGGAUACGC	0.754	0.426 0.367 0.270	0 0.0636 0.0722	0 0 0
GUGGUUCCGGAUACGG	1.63	0.693 1.12 0.892	0.0283 0 0	0.149 0.0738 0
GUGGUUCCGGAUACGU	0.893	0.693 0.668 0.757	0.397 0.0318 0.433	0 0 0
GUGGUUCCGGAUACUA	1.26	0.506 0.518 0.297	0 0 0	0.149 0 0
GUGGUUCCGGAUACUC	0.831	0.480 0.410 0.216	0 0 0.0722	0 0 0
GUGGUUCCGGAUACUG	0.877	0.320 0.345 0.162	0 0 0	0 0 0
GUGGUUCCGGAUACUU	0.816	0.453 0.323 0.216	0 0.0318 0.0361	0 0 0
GUGGUUCCGGAUCCAA	2.43	1.15 1.10 1.32	0.142 0 0.289	0.0559 0 0.0486
GUGGUUCCGGAUCCAC	1.09	0.426 0.410 0.297	0 0 0	0 0 0
GUGGUUCCGGAUCCAG	0.954	0.267 0.625 0.432	0 0 0.0361	0 0 0
GUGGUUCCGGAUCCAU	0.693	0.773 0.733 0.540	0 0 0.397	0 0 0
GUGGUUCCGGAUCCCA	0.739	0.347 0.323 0.243	0 0 0.0361	0 0 0
GUGGUUCCGGAUCCCC	0.723	0.400 0.302 0.243	0.0567 0 0	0 0 0
GUGGUUCCGGAUCCCG	0.923	0.293 0.280 0.297	0 0.0318 0	0 0 0
GUGGUUCCGGAUCCCU	0.677	0.453 0.237 0.216	0 0.0318 0	0 0 0
GUGGUUCCGGAUCCGA	0.908	0.426 0.496 0.270	0.0283 0.159 0.0722	0 0.0184 0
GUGGUUCCGGAUCCGC	1.05	0.800 0.496 0.865	0.737 0.604 0.253	0.671 0.609 0.486
GUGGUUCCGGAUCCGG	0.908	0.347 0.280 0.189	0 0 0.0361	0.0186 0 0.0730
GUGGUUCCGGAUCCGU	1.39	0.560 0.625 0.243	0 0 0.0361	0.0559 0 0
GUGGUUCCGGAUCCUA	1.54	0.800 1.25 0.676	0 0 0.0361	0.168 0 0
GUGGUUCCGGAUCCUC	0.816	0.480 0.194 0.243	0 0 0	0 0.0184 0
GUGGUUCCGGAUCCUG	0.769	0.480 0.367 0.135	0 0 0	0 0 0.0243
GUGGUUCCGGAUCCUU	1.11	0.267 0.108 0.243	0.0567 0.0318 0	0 0 0
GUGGUUCCGGAUGCAA	1.71	0.960 0.625 1.05	0 0 0	0.186 0.0553 0
GUGGUUCCGGAUGCAC	1.22	0.586 0.367 0.378	0 0.0318 0	0 0 0
GUGGUUCCGGAUGCAG	0.893	0.800 0.582 0.351	0 0 0.0361	0.0186 0 0
GUGGUUCCGGAUGCAU	0.739	0.720 0.755 0.919	0.0283 0.0636 0.217	0 0.0184 0
GUGGUUCCGGAUGCCA	0.877	0.240 0.259 0.324	0.0283 0.0318 0	0 0 0
GUGGUUCCGGAUGCCC	0.769	0.453 0.474 0.162	0 0.0636 0	0 0 0
GUGGUUCCGGAUGCCG	0.769	0.293 0.367 0.216	0.0283 0 0	0 0 0

6 of these entries, quoted again:

With GUGGUUCCGGAGUCUC (pool 0.769) the assay gave inoculated region 0.853 0.712 0.892; leaf margin 0 0.0318 0.542; systemic leaves 0 0 0.
With GUGGUUCCGGAUACGC (pool 0.754) the assay gave inoculated region 0.426 0.367 0.270; leaf margin 0 0.0636 0.0722; systemic leaves 0 0 0.
With GUGGUUCCGGAGUCAA (pool 0.646) the assay gave inoculated region 0.773 0.712 0.703; leaf margin 0 0.923 0.217; systemic leaves 0 0 0.
With GUGGUUCCGGAGUCUA (pool 0.893) the assay gave inoculated region 1.04 0.755 1.13; leaf margin 0 0 0; systemic leaves 0 0 0.
With GUGGUUCCGGAUACCC (pool 0.662) the assay gave inoculated region 0.293 0.539 0.351; leaf margin 0 0 0; systemic leaves 0 0 0.
With GUGGUUCCGGAGGCUU (pool 1.03) the assay gave inoculated region 0.800 0.647 0.973; leaf margin 0 0.891 0.397; systemic leaves 0 0 0.